A mixed list of measured activities; the numbers were collected in NIAID ChemDB.

Shared fields: cytotoxicity tests; cell line: ATH8; measure: CC50

Neighbouring rows are from separate reports.

smiles,value
CC(C)[C@H](NC(=O)N(C)Cc1ccccn1)C(=O)N[C@@H](Cc1ccccc1)[C@@H](O)[C@H](O)[C@H](Cc1ccccc1)NC(=O)[C@@H](NC(=O)N(C)Cc1ccccn1)C(C)C,>10 µM
CCc1cn([C@H]2C[C@H](N=[N+]=[N-])[C@@H](CO)O2)c(=O)[nH]c1=O,>100 µM
O=c1ccn([C@H]2C=C[C@@H](CO)O2)c(=O)[nH]1,107 µM
Nc1ncnc2c1ncn2CCCCO,<1000 µM
Nc1ncnc2c1ncn2[C@@H]1C=C(CO)[C@@H](O)[C@H]1O,<0.05 µg/mL
CC(C)(C)NC(=O)[C@@H]1CCCN1C(=O)[C@@H](O)[C@H](Cc1ccccc1)NC(=O)[C@H](CC(N)=O)NC(=O)c1ccc2ccccc2n1,>20 µM
Nc1ncnc2c1ncn2[C@H]1CC[C@@H](CO)O1,600 µM
OC[C@H]1O[C@@H](n2cnc3c2NC=NC[C@H]3O)C[C@@H]1O,>0.02 µM
Nc1nc2c(ncn2C/C=C\CO)c(=O)[nH]1,~500 µM
Cc1cn([C@H]2C[C@H](I)[C@@H](CO)O2)c(=O)[nH]c1=O,>500 µM
O=c1[nH]cnc2c1ncn2[C@H]1CC[C@@H](CO)O1,1000 µM
CCc1cn([C@H]2C[C@H](F)[C@@H](CO)O2)c(=O)[nH]c1=O,>500 µM
CC(C)(C)NC(=O)[C@@H]1CCCN1C(=O)[C@@H](O)[C@H](Cc1ccccc1)NC(=O)[C@H](CC(N)=O)NC(=O)OCc1ccccc1,20 µM
Nc1ccn([C@H]2CC[C@@H](CO)O2)c(=O)n1,35 µM
Cc1cn([C@H]2C[C@H](Br)[C@@H](CO)O2)c(=O)[nH]c1=O,>180 µM
O=C(O)P(=O)(O)O,>100 µg/mL
Cc1cn([C@H]2CC[C@@H](CO)O2)c(=O)[nH]c1=O,>2000 µM
Nc1ccn([C@H]2C[C@H]3OC[C@H]3O2)c(=O)n1,>500 µM
Nc1ncnc2c1ncn2[C@H]1C=C[C@@H](CO)O1,52 µM
NC(=O)c1[nH]nc([C@@H]2O[C@H](CO)[C@@H](O)[C@H]2O)c1O,<100 µg/mL
Nc1ccn([C@H]2C=C[C@@H](CO)O2)c(=O)n1,2000 µM
Nc1ncnc2c1ncn2[C@H]1CC[C@@H](CO)O1,>1000 µM
Nc1ccn([C@H]2C[C@H](F)[C@@H](CO)O2)c(=O)n1,>250 µM
CSC[C@H](NC(=O)COc1cccc2cnccc12)C(=O)N[C@@H](Cc1ccccc1)[C@H](O)C(=O)N1CSC(C)(C)[C@H]1C(=O)NC(C)(C)C,40 µM
Nc1ccn([C@H]2C[C@@H](O)[C@@H](CO)O2)c(=O)n1,>100 µM
Nc1nc2c(ncn2[C@H]2CC[C@@H](CO)O2)c(=O)[nH]1,500 µM
Cc1cn([C@H]2CC[C@@H](CO)O2)c(=O)[nH]c1=O,>2000 µM
Nc1ncnc2c1ncn2CC#CCO,>100 µM
O=c1[nH]cnc2c1ncn2[C@H]1CC[C@@H](CO)O1,>1000 µM

The first 2 rows once more:

smiles | value
CC(C)[C@H](NC(=O)N(C)Cc1ccccn1)C(=O)N[C@@H](Cc1ccccc1)[C@@H](O)[C@H](O)[C@H](Cc1ccccc1)NC(=O)[C@@H](NC(=O)N(C)Cc1ccccn1)C(C)C | >10 µM
CCc1cn([C@H]2C[C@H](N=[N+]=[N-])[C@@H](CO)O2)c(=O)[nH]c1=O | >100 µM

CCn: concentration that lowers growth or viability of the cells by n%.